Compound potency records, mixed from different reports. Data source: NIAID ChemDB in PubChem.

All rows: tests in culture; agent: HIV-2; strain or isolate: ROD; measure: EC50

Blank or dashed fields: not listed here. Neighbouring rows are from separate reports. ECn is the concentration giving n% inhibition of infection, replication or growth. Two numbers with a dash give a range or band.

| SMILES | method | cells | result |
|---|---|---|---|
| N#Cc1c(SCCCCSc2nsc(-c3ccccc3)c2C#N)nsc1-c1ccccc1 | cytopathic effect | MT-4 | >125 µg/mL |
| CC(C)C(NS(=O)(=O)c1ccc(Cl)cc1)c1nnc(Nc2ccc(F)cc2)s1 | MTT | MT-4 | >8.81 µM |
| O=C(O)c1cc(O)c(O)c(O)c1 | syncytia | MOLT-4 | 8 µg/mL |
| O=C1c2ccccc2[C@]2(O)C3C4C[C@H]5CC(C[C@H]3C5)C4N12 | syncytia | CEM | >20 µg/mL |
| C=CCO[C@]12CS(=O)(=O)O[C@@]13[C@@H](CN2)O[C@@H](n1cc(C)c(=O)[nH]c1=O)[C@@H]3O[Si](C)(C)C(C)(C)C | - | CEM | >50 µM |
| CCCCCCCCCCCCCC(=O)Oc1ccc(COP(=O)(OCc2ccc(OC(=O)CCCCCCCCCCCCC)cc2)OP(=O)(O)OC[C@@H]2C=C[C@H](n3cc(C)c(=O)[nH]c3=O)O2)cc1 | syncytia / microscopy | CEM/TK- | 1.2 µM |
| O=C(O)c1ccc2nc(-c3c(F)cccc3F)n(Cc3c(F)cccc3F)c2c1 | RT activity | MT-4 | >117 µM |
| Cc1ccc(C)c(C(C(N)=O)S(=O)(=O)c2cccc[n+]2[O-])c1 | syncytia | CEM | >20 µg/mL |
| Nc1ccc(C(=O)c2ccc3[nH]c(=O)oc3c2)cc1 | syncytia | CEM | >40 µg/mL |
| O=C(O)c1ccc(O)c(O)c1 | cytopathic effect / MTT | MT-4 | 8 µg/mL |
| O=C(c1ccccc1)c1ccc2c(c1)oc(=O)n2CCN1CCCCC1 | syncytia | CEM | >8 µg/mL |
| COc1cc2c(cc1Cc1c(F)cccc1Cl)nc(-c1c(F)cccc1Cl)n2Cc1c(F)cccc1Cl | RT activity | MT-4 | >127 µM |
| CSc1nsc(-c2ccccc2)c1C#N | cytopathic effect | MT-4 | >125 µg/mL |
| C[C@H](CS)C(=O)N1CCC[C@@H]1c1nc2c([N+](=O)[O-])cccc2[nH]1 | MTT | MT-4 | >11.27 µg/mL |
| CCCCCCCCCCCC(Sc1cccc[n+]1[O-])c1cc(C)ccc1C | syncytia | CEM | >4 µg/mL |
| N#Cc1c(SCCCSc2nsc(-c3ccccc3)c2C#N)nsc1-c1ccccc1 | cytopathic effect | MT-4 | >125 µg/mL |
| COC(=O)C12CC3CC(C1)CC(N1C(=O)c4ccccc4C1=O)(C3)C2 | syncytia | CEM | >20 µg/mL |
| CCS[C@]12CS(=O)(=O)O[C@@]13[C@@H](CN2)O[C@@H](n1cc(C)c(=O)[nH]c1=O)[C@@H]3O | - | CEM | >250 µM |
| CCOC(=O)c1c(C)n([C@H]2C[C@@H]2c2ccccc2)c2ccc(OC(C)=O)c(O)c12 | MTT | MT-4 | 11.09 µM |
| Nc1cccc2c1C(=O)N(C13CC4CC(CC(C4)C1)C3)C2=O | syncytia | CEM | >4 µg/mL |
| Cc1ccc(C)c(CS(=O)c2c(C)ccc[n+]2[O-])c1 | syncytia | CEM | ≥20 µg/mL |
| O=C(c1cccc(I)c1)c1ccc2[nH]c(=O)sc2c1 | syncytia | CEM | >8 µg/mL |
| Cc1cn([C@@H]2O[C@@H]3CN[C@@]4(OCC5CCOC5)CS(=O)(=O)O[C@@]34[C@H]2O[Si](C)(C)C(C)(C)C)c(=O)[nH]c1=O | - | CEM | >50 µM |
| Cc1cn([C@H]2C[C@H](N=[N+]=[N-])[C@@H](CO)O2)c(=O)[nH]c1=O | syncytia | C8166 | 0.01534 µM |
| O=C1c2ccccc2C(=O)N1C12CC3CC(CC(C(=O)O)(C3)C1)C2 | syncytia | CEM | >20 µg/mL |
| Cc1ccc(CSc2ccccn2)cc1C | syncytia | CEM | >4 µg/mL |
| O=C1c2ccccc2N(Cc2ccc(Cl)cc2)S(=O)(=O)N1Cc1ccccc1 | cytopathic effect | MT-4 | >50 µM |
| N#C/C(=C/c1ccc(Cl)cc1Cl)Sc1cccc[n+]1[O-] | syncytia | CEM | >0.8 µg/mL |
| CC(=O)n1c(=O)sc2cc(C(=O)c3cccc(F)c3)ccc21 | syncytia | CEM | 8 µg/mL |
| O=C1c2cccc([N+](=O)[O-])c2C(=O)N1C12CC3CC(CC(C3)C1)C2 | syncytia | CEM | >4 µg/mL |
| CCCCCCC(=O)Oc1ccc(COP(=O)(OCc2ccc(OC(=O)CCCCCC)cc2)OP(=O)(O)OC[C@@H]2C=C[C@H](n3cc(C)c(=O)[nH]c3=O)O2)cc1 | syncytia / microscopy | CEM/TK- | 1.2 µM |
| O=[N+]([O-])c1ccc(O)c(CSc2cccc[n+]2[O-])c1 | syncytia | CEM | >20 µg/mL |
| O=C(O)Cc1ccc(O)c(O)c1 | cytopathic effect / MTT | MT-4 | 7 µg/mL |
| CSc1nsc(-c2ccc(OCc3ccccc3)cc2)c1C#N | cytopathic effect | MT-4 | >125 µg/mL |
| Cc1cn([C@@H]2O[C@@H]3CN[C@@]4(O)CS(=O)(=O)O[C@@]34[C@H]2O[Si](C)(C)C(C)(C)C)c(=O)[nH]c1=O | - | CEM | >250 µM |
| N#Cc1c(-c2ccccc2)s[nH]c1=S | cytopathic effect | MT-4 | 9.7 µg/mL |
| COc1cc2nc(-c3c(F)cccc3F)n(Cc3c(F)cccc3F)c2cc1Cc1c(F)cccc1F | RT activity | MT-4 | >31.35 µM |
| O=C1C=CC(=C(c2ccc(O)cc2)c2ccc(O)cc2)C=C1 | cytopathic effect / MTT | MT-4 | >100 µg/mL |
| CC(CS)C(=O)N1CCC[C@@H]1C(=O)NCC(=O)N1CCN(c2nc3ccccc3s2)CC1 | MTT | MT-4 | >1.21 µg/mL |
| O=[N+]([O-])c1ccc[n+]([O-])c1SCc1ccccc1 | syncytia | CEM | ≥20 µg/mL |
| CCCOC12CS(=O)(=O)OC13[C@@H](CN2)O[C@@H](n1cc(C)c(=O)[nH]c1=O)[C@@H]3O | - | CEM | >250 µM |
| CCCCCCCCCC(=O)Oc1ccc(COP(=O)(OCc2ccc(OC(=O)CCCCCCCCC)cc2)OP(=O)(O)OC[C@@H]2C=C[C@H](n3cc(C)c(=O)[nH]c3=O)O2)cc1 | syncytia / microscopy | CEM | 0.32 µM |
| Cn1c(=O)sc2cc(C(=O)c3ccc(Cl)c([N+](=O)[O-])c3)ccc21 | syncytia | CEM | 3.5 µg/mL |
| Cc1cccc(O)c1O | syncytia | MOLT-4 | 24 µg/mL |
| O=C(c1cccc([N+](=O)[O-])c1)c1ccc2[nH]c(=O)oc2c1 | syncytia | CEM | >8 µg/mL |
| CCOC(=O)Sc1nsc(-c2ccccc2)c1C#N | cytopathic effect | MT-4 | 13.4 µg/mL |
| CCCCCCCCCCCC(=O)Oc1ccc(COP(=O)(OCc2ccc(OC(=O)CCCCCCCCCCC)cc2)OP(=O)(O)OC[C@@H]2C=C[C@H](n3cc(C)c(=O)[nH]c3=O)O2)cc1 | syncytia / microscopy | CEM/TK- | 0.23 µM |
| O=C1c2ccccc2N(Cc2ccccc2Cl)S(=O)(=O)N1Cc1ccccc1Cl | cytopathic effect | MT-4 | >2 µM |
| CC(C)c1ccc(C(C)C)c(CS(=O)c2cccc[n+]2[O-])c1 | syncytia | CEM | ≥4 µg/mL |
| C[C@H](CS)C(=O)N1CCC[C@@H]1c1nc2ncnc(N)c2[nH]1 | MTT | MT-4 | >24.7 µg/mL |
| Cn1c(=O)sc2cc(C(=O)c3ccccc3)ccc21 | syncytia | CEM | 3.5 µg/mL |
| Cc1ccnc2c1NC(=O)c1cccnc1N2C1CC1 | MTT | MT-4 | >4 µM |
| Cc1ccc[n+]([O-])c1S(=O)(=O)C(C)c1cccc([N+](=O)[O-])c1C | syncytia | CEM | 60 µg/mL |
| O=C1c2ccccc2N(Cc2ccccc2Cl)S(=O)(=O)N1COCc1ccccc1 | cytopathic effect | MT-4 | 17.9–32.1 µM |
| CC(C)C(NS(=O)(=O)c1ccc(Br)cc1)c1nnc(Nc2ccc(F)cc2)s1 | MTT | MT-4 | >10.08 µM |
| C[C@H](CS)C(=O)N1CCC[C@@H]1c1nc2ncncc2[nH]1 | MTT | MT-4 | >59.05 µg/mL |
| CCCCC(=O)c1ccc2c(c1)oc(=O)n2CCN1CCOCC1 | syncytia | CEM | >8 µg/mL |
| Cc1cn([C@@H]2O[C@@H]3CN[C@@]4(OCCO)CS(=O)(=O)O[C@@]34[C@H]2O)c(=O)[nH]c1=O | - | CEM | >250 µM |
| Cc1cccc(C(C#N)S(=O)c2cccc[n+]2[O-])c1 | syncytia | CEM | >0.8 µg/mL |
| C#CCOCN1c2ccccc2C(=O)N(Cc2ccccc2)S1(=O)=O | cytopathic effect | MT-4 | >10 µM |
| Cc1ccccc1C(C#N)S(=O)c1cccc[n+]1[O-] | syncytia | CEM | >0.8 µg/mL |
| CC(C)C(NS(=O)(=O)c1ccc(Cl)cc1)c1nnc(Nc2ccc(Br)cc2)s1 | MTT | MT-4 | >4.98 µM |
| Cc1ccc(C(C)S(=O)c2cccc[n+]2[O-])cc1 | syncytia | CEM | >0.032 µg/mL |
| Cc1cn([C@@H]2O[C@@H]3CN[C@@]4(OCC5CCOC5)CS(=O)(=O)O[C@@]34[C@H]2O)c(=O)[nH]c1=O | - | CEM | >250 µM |
| CC(c1ccc(Cl)cc1)S(=O)c1cccc[n+]1[O-] | syncytia | CEM | >0.8 µg/mL |
| Cc1ccc(S(=O)(=O)NC(c2nnc(Nc3ccc(F)cc3)s2)C(C)C)cc1 | MTT | MT-4 | >9.5 µM |
| Cc1cn([C@@H]2O[C@@H]3CN[C@@]4(C(N)=O)CS(=O)(=O)O[C@@]34[C@H]2O)c(=O)[nH]c1=O | - | CEM | >250 µM |
| CCCN(C)c1nc(C(C)c2c(F)cccc2F)c(C)c(=O)[nH]1 | MTT | MT-4 | 8.6 µM |

6 of the rows above, restated:

SMILES	method	cells	result
N#C/C(=C/c1ccc(Cl)cc1Cl)Sc1cccc[n+]1[O-]	syncytia	CEM	>0.8 µg/mL
Cc1cn([C@@H]2O[C@@H]3CN[C@@]4(O)CS(=O)(=O)O[C@@]34[C@H]2O[Si](C)(C)C(C)(C)C)c(=O)[nH]c1=O	-	CEM	>250 µM
Cc1cn([C@@H]2O[C@@H]3CN[C@@]4(OCC5CCOC5)CS(=O)(=O)O[C@@]34[C@H]2O)c(=O)[nH]c1=O	-	CEM	>250 µM
CC(C)c1ccc(C(C)C)c(CS(=O)c2cccc[n+]2[O-])c1	syncytia	CEM	≥4 µg/mL
Cc1cn([C@@H]2O[C@@H]3CN[C@@]4(C(N)=O)CS(=O)(=O)O[C@@]34[C@H]2O)c(=O)[nH]c1=O	-	CEM	>250 µM
COc1cc2nc(-c3c(F)cccc3F)n(Cc3c(F)cccc3F)c2cc1Cc1c(F)cccc1F	RT activity	MT-4	>31.35 µM